US20250313611A1

Biological target: recombinant human FcRn/FCGRT-B2M heterodimer protein (human) (UniProt P55899)
Assay: SPR, pH 7.4

Substance | RUmax at 1500 nM (pH 7.4) [RU]
Bebtelovimab Biosimilar (PX-TA1750) (antibody) | 8.2
human IgG1 isotype control antibody | 16.2
